{"source": "patent US5750391A", "about": "“Filariid nematode cysteine protease proteins” (Heska Corporation, priority 1995, dated 1998)", "tested_on": "D. immitis larvae", "test": "Effect of protease inhibitors on larval molting (L3 cultured in NI medium)", "format": "cell-based, Dirofilaria immitis", "conditions": "treated larvae", "data": [{"compound": "CC(C)C[C@H](NP(=O)(O)O[C@@H]1O[C@@H](C)[C@H](O)[C@@H](O)[C@H]1O)C(=O)N[C@@H](Cc1c[nH]c2ccccc12)C(=O)O", "note": "[Phosphoramidon]", "values": [{"measurement": "cuticle separation and escape from old cuticle", "value": "could not open up the old cuticle and escape"}]}]}
